## HIV-1 5' UTR: DMS reactivities by position

Reference: Ye et al. 2022, doi:10.1038/s41594-022-00746-2.

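Randomly mutated transcripts starting with one, two or three G (1G, 2G, 3G), capped or uncapped, were folded for 30 min at 37 °C. High salt was 300 mM KCl and 5 mM MgCl2, low salt 40 mM KCl and 0.1 mM MgCl2; monomer and dimer were parted on a native gel. Each band was probed in the gel with DMS (170 mM, 15 min, 37 °C), with ethanol as control, and sequenced.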

Sequence of the HIV-1 NL4-3 5' RNA, positions 1 to 437, as numbered in the source:
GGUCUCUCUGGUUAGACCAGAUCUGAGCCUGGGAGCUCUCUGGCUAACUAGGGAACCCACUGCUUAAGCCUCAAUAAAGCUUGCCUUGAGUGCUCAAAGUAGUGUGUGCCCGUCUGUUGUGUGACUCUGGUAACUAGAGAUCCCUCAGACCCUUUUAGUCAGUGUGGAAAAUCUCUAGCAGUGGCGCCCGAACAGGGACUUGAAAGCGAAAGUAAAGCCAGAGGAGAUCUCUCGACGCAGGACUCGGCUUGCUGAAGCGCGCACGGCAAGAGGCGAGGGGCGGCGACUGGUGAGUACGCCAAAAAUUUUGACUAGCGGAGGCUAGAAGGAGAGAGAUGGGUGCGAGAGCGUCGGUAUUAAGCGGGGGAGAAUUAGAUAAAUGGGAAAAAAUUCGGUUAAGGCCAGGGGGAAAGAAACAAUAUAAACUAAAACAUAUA

Values are winsor-normalised DMS reactivities of A and C; higher means more reactive, usually unpaired.
One numbering serves 1G, 2G and 3G.
A position is written with its base.

* A411 -> 3G uncapped high-salt dimer 0.82; 1G capped low-salt dimer 0.81; 2G uncapped high-salt dimer 0.83; 2G capped low-salt monomer 0.86
* A412 -> 3G uncapped high-salt dimer 0.47; 1G capped low-salt dimer 0.51; 2G uncapped high-salt dimer 0.49; 2G capped low-salt monomer 0.50
* A414 -> 3G uncapped high-salt dimer 0.43; 1G capped low-salt dimer 0.50; 2G uncapped high-salt dimer 0.51; 2G capped low-salt monomer 0.45
* A415 -> 3G uncapped high-salt dimer 0.19; 1G capped low-salt dimer 0.24; 2G uncapped high-salt dimer 0.23; 2G capped low-salt monomer 0.21
* A416 -> 3G uncapped high-salt dimer 0.40; 1G capped low-salt dimer 0.42; 2G uncapped high-salt dimer 0.39; 2G capped low-salt monomer 0.46
* C417 -> 3G uncapped high-salt dimer 0.76; 1G capped low-salt dimer 0.80; 2G uncapped high-salt dimer 0.75; 2G capped low-salt monomer 0.80
* A418 -> 3G uncapped high-salt dimer 0.58; 1G capped low-salt dimer 0.62; 2G uncapped high-salt dimer 0.61; 2G capped low-salt monomer 0.62
* A419 -> 3G uncapped high-salt dimer 0.44; 1G capped low-salt dimer 0.47; 2G uncapped high-salt dimer 0.48; 2G capped low-salt monomer 0.46
* A421 -> 3G uncapped high-salt dimer 0.35; 1G capped low-salt dimer 0.36; 2G uncapped high-salt dimer 0.37; 2G capped low-salt monomer 0.36
* A423 -> 3G uncapped high-salt dimer 0.36; 1G capped low-salt dimer 0.42; 2G uncapped high-salt dimer 0.48; 2G capped low-salt monomer 0.39
* A424 -> 3G uncapped high-salt dimer 0.28; 1G capped low-salt dimer 0.36; 2G uncapped high-salt dimer 0.41; 2G capped low-salt monomer 0.31
* A425 -> 3G uncapped high-salt dimer 0.47; 1G capped low-salt dimer 0.54; 2G uncapped high-salt dimer 0.54; 2G capped low-salt monomer 0.48
* C426 -> 3G uncapped high-salt dimer 0.71; 1G capped low-salt dimer 0.78; 2G uncapped high-salt dimer 0.74; 2G capped low-salt monomer 0.72
* A428 -> 3G uncapped high-salt dimer 0.10; 1G capped low-salt dimer 0.10; 2G uncapped high-salt dimer 0.09; 2G capped low-salt monomer 0.11
* A429 -> 3G uncapped high-salt dimer 0.65; 1G capped low-salt dimer 0.70; 2G uncapped high-salt dimer 0.72; 2G capped low-salt monomer 0.69
* A430 -> 3G uncapped high-salt dimer 0.47; 1G capped low-salt dimer 0.55; 2G uncapped high-salt dimer 0.59; 2G capped low-salt monomer 0.51
* A431 -> 3G uncapped high-salt dimer 0.51; 1G capped low-salt dimer 0.61; 2G uncapped high-salt dimer 0.64; 2G capped low-salt monomer 0.56
* C432 -> 3G uncapped high-salt dimer 0.85; 1G capped low-salt dimer 0.90; 2G uncapped high-salt dimer 0.89; 2G capped low-salt monomer 0.85
* A433 -> 3G uncapped high-salt dimer 0.69; 1G capped low-salt dimer 0.73; 2G uncapped high-salt dimer 0.71; 2G capped low-salt monomer 0.72
* A435 -> 3G uncapped high-salt dimer 0.46; 1G capped low-salt dimer 0.51; 2G uncapped high-salt dimer 0.48; 2G capped low-salt monomer 0.50
* A437 -> 3G uncapped high-salt dimer 0.03; 1G capped low-salt dimer 0.05; 2G uncapped high-salt dimer 0.03; 2G capped low-salt monomer 0.03

The opening 2 entries, copied out:

| position | 3G uncapped high-salt dimer | 1G capped low-salt dimer | 2G uncapped high-salt dimer | 2G capped low-salt monomer |
|---|---|---|---|---|
| A411 | 0.82 | 0.81 | 0.83 | 0.86 |
| A412 | 0.47 | 0.51 | 0.49 | 0.50 |